In patent publication US20230014151A1, “COMBINATION ANTIVIRAL THERAPY FOR MEASLES” (The Trustees of Columbia University in the City of New York, priority 2019, published 2023):

Legend:
MeV = test: lethal MeV encephalitis in IFNAR KO mice, intranasal peptide; format: in vivo; conditions: intranasal administration
CNS-adapted MV = test: MeV infection of human motor neurons, CNS-adapted virus

CC[C@H](C)[C@H](NC(=O)[C@H](C)NC(=O)[C@H](CC(N)=O)NC(=O)CNC(=O)[C@H](CC(C)C)NC(=O)[C@H](CC(N)=O)NC(=O)[C@@H](NC(=O)CNC(=O)[C@@H](NC(=O)[C@H](CC(=O)O)NC(=O)[C@H](CC(C)C)NC(=O)[C@H](CCCNC(=N)N)NC(=O)[C@H](CCC(=O)O)NC(=O)[C@H](CC(C)C)NC(=O)[C@H](CO)NC(=O)[C@@H](NC(=O)[C@@H]1CCCN1C(=O)[C@@H]1CCCN1C(C)=O)[C@@H](C)CC)C(C)C)[C@@H](C)O)C(=O)N[C@@H](C)C(=O)N[C@@H](CCCCN)C(=O)N[C@@H](CC(C)C)C(=O)N[C@@H](CCC(=O)O)C(=O)N[C@@H](CC(=O)O)C(=O)N[C@@H](C)C(=O)N[C@@H](CCCCN)C(=O)N[C@@H](CCC(=O)O)C(=O)N[C@@H](CC(C)C)C(=O)N[C@@H](CC(C)C)C(=O)N[C@@H](CCC(=O)O)C(=O)N[C@@H](CO)C(=O)N[C@@H](CO)C(=O)N[C@@H](CC(=O)O)C(=O)N[C@@H](CCC(N)=O)C(=O)N[C@H](C(=O)N[C@@H](CC(C)C)C(=O)N[C@@H](CCCNC(=N)N)C(=O)NCC(=O)N[C@@H](CO)C(=O)NCC(=O)N[C@@H](CO)C(=O)NCC(=O)N[C@@H](CSC1CC(=O)N(CCCC(=O)NCCOCCOCCOCCOCCC(=O)NCCN(CCNC(=O)CCOCCOCCOCCOCCNC(=O)CCCN2C(=O)CC(SC[C@H](NC(=O)CNC(=O)[C@H](CO)NC(=O)CNC(=O)[C@H](CO)NC(=O)CNC(=O)[C@H](CCCNC(=N)N)NC(=O)[C@H](CC(C)C)NC(=O)[C@@H](NC(=O)[C@H](CCC(N)=O)NC(=O)[C@H](CC(=O)O)NC(=O)[C@H](CO)NC(=O)[C@H](CO)NC(=O)[C@H](CCC(=O)O)NC(=O)[C@H](CC(C)C)NC(=O)[C@H](CC(C)C)NC(=O)[C@H](CCC(=O)O)NC(=O)[C@H](CCCCN)NC(=O)[C@H](C)NC(=O)[C@H](CC(=O)O)NC(=O)[C@H](CCC(=O)O)NC(=O)[C@H](CC(C)C)NC(=O)[C@H](CCCCN)NC(=O)[C@H](C)NC(=O)[C@@H](NC(=O)[C@H](C)NC(=O)[C@H](CC(N)=O)NC(=O)CNC(=O)[C@H](CC(C)C)NC(=O)[C@H](CC(N)=O)NC(=O)[C@@H](NC(=O)CNC(=O)[C@@H](NC(=O)[C@H](CC(=O)O)NC(=O)[C@H](CC(C)C)NC(=O)[C@H](CCCNC(=N)N)NC(=O)[C@H](CCC(=O)O)NC(=O)[C@H](CC(C)C)NC(=O)[C@H](CO)NC(=O)[C@@H](NC(=O)[C@@H]3CCCN3C(=O)[C@@H]3CCCN3C(C)=O)[C@@H](C)CC)C(C)C)[C@@H](C)O)[C@@H](C)CC)[C@@H](C)CC)C(=O)O)C2=O)CCO[C@H]2CC[C@@]3(C)C(=CC[C@H]4[C@@H]5CC[C@H]([C@H](C)CCCC(C)C)[C@@]5(C)CC[C@@H]43)C2)C1=O)C(=O)O)[C@@H](C)CC (some centres unmarked) [[HRC450-485-peg4]2-chol]
protection from lethal MeV encephalitis (MeV): protects IFNAR KO mice from lethal MeV encephalitis | spread of CNS-adapted MV in human motor neurons (CNS-adapted MV): blocks spread of virus only at the highest concentration
